Like-named read-outs stand apart in the source and are kept apart here.

This data set deals with EL-4s3 cells. As to conditions: mice immunised with Env67(2I) pulsed dendritic cells.

In the case of `CC(C)[C@H](NC(=O)[C@H](CS)NC(=O)[C@H](C)NC(=O)[C@H](Cc1c[nH]cn1)NC(=O)[C@@H](NC(=O)[C@H](C)NC(=O)[C@H](Cc1c[nH]c2ccccc12)NC(=O)[C@@H](NC(=O)[C@@H](N)CC(N)=O)C(C)C)[C@@H](C)O)C(=O)O` [Env 67(2V)], the “recognition by Env67(2I) specific splenocytes in cytotoxicity assay” value is on record as “recognize”. Moreover, the “recognition by Env67(2I) specific splenocytes in cytotoxicity assay” value (listed as I2V) is “equal percent specific lysis”.

The record behind these values is patent EP2021356B1, “HIV VACCINE” (priority 2006, dated 2007).
